Measured values as given in patent US20220089698A1, “ANTIBODIES THAT TARGET HIV GP120 AND METHODS OF USE” (published 2022).
Residue numbers refer to the chain shown, from its start.

B1: Antibody 1.22.1-1 (antibody, human IgG1, kappa)
heavy: QVQLLQSGAAVTKPGASVRVSCEASGYNIRDYFIHWWRQAPGQGLQWVGWINPKTGQPNNPRQFQGRVSLTRHASTFSFYMDLKALRSDDTAVYFCARQRSDYWDFDVWGSGTQVTVSSASTKGPSVFPLAPSSKSTSGGTAALGCLVKDYFPEPVTVSWNSGALTSGVHTFPAVLQSSGLYSLSSVVTVPSSSLGTQTYICNVNHKPSNTKVDKKVEPKSCDKTHTCPPCPAPELLAGPDVFLFPPKPKDTLMISRTPEVTCVVVDVSHEDPEVKFNWYVDGVEVHNAKTKPREEQYNSTYRVVSVLTVLHQDWLNGKEYKCKVSNKALPLPEEKTISKAKGQPREPQVYTLPPSREEMTKNQVSLTCLVKGFYPSDIAVEWESNGQPENNYKTTPPVLDSDGSFFLYSKLTVDKSRWQQGNVFSCSVLHEALHSHYTQKSLSLSPGK
light: not shown
B2: Antibody 1.7.1-1 (antibody, human IgG1, kappa)
heavy: QVQLLQSGAEVKKPGASVRVSCEASGYNIRDYFIHWWRQAPGQGLQWVGWINPKTGQPNNPRQFQGRVSLTRHASWDFDTFSFYMDLKALRSDDTAVYFCARQRSDYWDFDVWGSGTQVTVSSASTKGPSVFPLAPSSKSTSGGTAALGCLVKDYFPEPVTVSWNSGALTSGVHTFPAVLQSSGLYSLSSVVTVPSSSLGTQTYICNVNHKPSNTKVDKKVEPKSCDKTHTCPPCPAPELLAGPDVFLFPPKPKDTLMISRTPEVTCVVVDVSHEDPEVKFNWYVDGVEVHNAKTKPREEQYNSTYRVVSVLTVLHQDWLNGKEYKCKVSNKALPLPEEKTISKAKGQPREPQVYTLPPSREEMTKNQVSLTCLVKGFYPSDIAVEWESNGQPENNYKTTPPVLDSDGSFFLYSKLTVDKSRWQQGNVFSCSVLHEALHSHYTQKSLSLSPGK
light: not shown
B3: Antibody 1.1.5-1 (antibody, human IgG1, kappa)
heavy: B2 heavy with E10A, K12T
light: not shown
B4: Antibody 1.1.13-1 (antibody, human IgG1, kappa)
heavy: B2 heavy with E10A, K12T
light: not shown
B5: Antibody 1.29.1-1 (antibody, human IgG1, kappa)
heavy: B2 heavy with E10A, K12T, S115Q
light: not shown
B6: Antibody 1.30.1-1 (antibody, human IgG1, kappa)
heavy: B2 heavy with E10A, K12T, Q118M
light: not shown
B7: Antibody 1.1.12-1 (antibody, human IgG1, kappa)
heavy: B2 heavy with E10A, K12T
light: not shown
B8: Antibody 1.1.19-1 (antibody, human IgG1, kappa)
heavy: B2 heavy with E10A, K12T
light: not shown
B9: Antibody 1.1.26-1 (antibody, human IgG1, kappa)
heavy: B2 heavy with E10A, K12T
light: not shown
B10: Antibody 1.1.4-1 (antibody, human IgG1, kappa)
heavy: B2 heavy with E10A, K12T
light: not shown
B11: Antibody 1.21.1-1 (antibody, human IgG1, kappa)
heavy: B2 heavy with E10A, K12T, H73D
light: not shown
B12: Antibody 1.8.1-1 (antibody, human IgG1, kappa)
heavy: B2 heavy with L5V, K12T
light: not shown
B13: Antibody 1.1.17-1 (antibody, human IgG1, kappa)
heavy: B2 heavy with E10A, K12T
light: not shown
B14: Antibody 1.1.27-1 (antibody, human IgG1, kappa)
heavy: B2 heavy with E10A, K12T
light: not shown
B15: Antibody 1.18.1-1 (antibody, human IgG1, kappa)
heavy: B2 heavy with E10A, K12T, T55H
light: not shown
B16: Antibody 1.1.2-1 (antibody, human IgG1)
heavy: B2 heavy with E10A, K12T
VL: DIQMTQSPSSLSASVGDTVTITCQANGYLNWYQQKPGKAPKLLIYDGSKLERGVPSRFSGRRWGQEYNLTINNLQPEDIATYFCQVYEFVVPGTKVDIK
B17: Antibody 1.25.1-1 (antibody, human IgG1, kappa)
heavy: B2 heavy with E10A, K12T, K88S, A89R
light: not shown
B18: Antibody 1.15.1-1 (antibody, human IgG1, kappa)
heavy: B2 heavy with E10A, K12T, T55W
light: not shown
B19: Antibody 1v2-1 (antibody, human IgG1, kappa)
heavy: B2 heavy with E10A, K12T, F81Y
light: not shown
B20: Antibody 1.26.1-1 (antibody, human IgG1, kappa)
heavy: B2 heavy with E10A, K12T, V97T
light: not shown
B21: Antibody 1.1.10-1 (antibody, human IgG1, kappa)
heavy: B2 heavy with E10A, K12T
light: not shown
B22: Antibody 1.33.1-1 (antibody, human IgG1, kappa)
heavy: B2 heavy with L5V, E23K, S69T, V97T
light: not shown
B23: Antibody 1.27.1-1 (antibody, human IgG1, kappa)
heavy: B2 heavy with E10A, K12T, S105T
light: not shown
B24: Antibody 1.9.1-1 (antibody, human IgG1, kappa)
heavy: B2 heavy with L5V, E23K
light: not shown
B25: Antibody 1.1.11-1 (antibody, human IgG1, kappa)
heavy: B2 heavy with E10A, K12T
light: not shown
B26: Antibody 1.28.1-1 (antibody, human IgG1, kappa)
heavy: B2 heavy with E10A, K12T, V97T, S105T
light: not shown

Key:
Assay in all cases: cell-based or functional assay
[1] = target: HIV-1 envelope glycoprotein gp120 of virus CHO77 (HIV-1 subtype B, virus CHO77)
[2] = target: HIV-1 envelope glycoprotein gp120 of virus BaL (HIV-1 BaL (lab adapted strain, subtype …))
[3] = target: HIV-1 envelope glycoprotein gp120 of virus 92US657 (HIV-1 subtype B, isolate 92US657)

Binder | Virus Neutralization Potency (IC50) [1] | Virus Neutralization Potency (IC50) [2] | Virus Neutralization Potency (IC50) [3]
B1 | 0.95 mg/L | > 20 mg/L | 11.3 mg/L
B2 | 0.1 mg/L | 0.51 mg/L | 1.1 mg/L
B3 | 0.12 mg/L | 0.21 mg/L | 1.93 mg/L
B4 | 0.09 mg/L | 0.19 mg/L | 1.43 mg/L
B5 | 0.09 mg/L | 0.14 mg/L | 1.33 mg/L
B6 | 0.06 mg/L | 0.15 mg/L | 0.93 mg/L
B7 | 0.12 mg/L | 0.06 mg/L | 1.64 mg/L
B8 | 0.12 mg/L | 0.09 mg/L | 0.9 mg/L
B9 | 0.13 mg/L | 0.07 mg/L | 1.49 mg/L
B10 | 0.12 mg/L | 0.1 mg/L | 1.44 mg/L
B11 | 0.17 mg/L | 0.11 mg/L | 2.51 mg/L
B12 | 0.09 mg/L | 0.04 mg/L | 1.88 mg/L
B13 | 0.1 mg/L | 0.08 mg/L | 1.27 mg/L
B14 | 0.1 mg/L | 0.12 mg/L | 1.25 mg/L
B15 | 0.1 mg/L | 0.12 mg/L | 1.78 mg/L
B16 | 0.14 mg/L | 0.2 mg/L | 0.62 mg/L
B17 | 0.12 mg/L | 0.17 mg/L | 1.46 mg/L
B18 | 0.1 mg/L | 0.17 mg/L | 1.42 mg/L
B19 | 0.07 mg/L | 0.08 mg/L | 0.88 mg/L
B20 | 0.11 mg/L | 0.06 mg/L | 0.93 mg/L
B21 | 0.07 mg/L | 0.1 mg/L | 0.6 mg/L
B22 | 0.17 mg/L | 0.11 mg/L | 0.95 mg/L
B23 | 0.13 mg/L | 0.54 mg/L | 0.56 mg/L
B24 | 0.17 mg/L | 0.2 mg/L | 1.39 mg/L
B25 | 0.13 mg/L | 0.09 mg/L | 1.17 mg/L
B26 | 0.1 mg/L | 0.11 mg/L | 1.63 mg/L
